Assay results: US10703765B2 (priority 2014, dated 2020)

Protein sequences, listed by entry. Tags and fused reporters are not part of them.
UniProt Q99720, whole entry, looked up: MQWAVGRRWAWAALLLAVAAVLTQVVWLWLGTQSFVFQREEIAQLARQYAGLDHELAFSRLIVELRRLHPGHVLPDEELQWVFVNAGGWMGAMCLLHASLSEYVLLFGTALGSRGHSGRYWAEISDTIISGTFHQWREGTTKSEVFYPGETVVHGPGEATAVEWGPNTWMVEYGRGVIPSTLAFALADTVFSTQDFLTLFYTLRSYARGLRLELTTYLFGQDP

Biological target: human σ1 receptor (Homo sapiens, UniProt Q99720)
Design: key to the marks not given beside the values
Conditions: combined class from Ki-σ1 (human σ1 receptor, A1) and Ki-μ (human μ-opioid receptor, A2) radioligand binding

CC1OC2(CCN(CCn3cnc4ccccc43)CC2)CN(c2ccccc2)C1=O.Cl (stereo not shown)
μ and σ1 dual binding: ++
